Assay results reported in PMC11466185, “Mechanisms and efficacy of small molecule latency-promoting agents to inhibit HIV reactivation ex vivo” (JCI Insight, 2024).
“And” between values parts separate entries of the source, which are not always exact repeats. Equal values may be shown once. Read-outs that look alike come from different tables or passages of the source.

Tests used:
PBMCs [1] = assay: Cell viability by trypan blue staining after 24 hours; format: cell-based, human
Method: Figure 1 Screening of candidate LPAs by measuring the change in multiply spliced HIV transcripts after activation. Each drug was tested in PBMCs from 2 ART-suppressed study participants (denoted in the legend by varying symbol shapes). PBMCs were aliquoted into wells at 6 × 10^6 cells/well. After activation, the cells were cultured with antiretrovirals in the presence of individual drugs in DMSO or DMSO alone as control. All conditions were tested in the presence of CD3/28 T cell–activating beads, except for the unactivated DMSO condition. (A) After 24 hours, the viability was measured by trypan blue staining and then normalized to the levels of the activated DMSO (% of activated DMSO). Bars indicate medians. (B) Total cellular RNA was extracted, and the levels of multiply spliced HIV transcripts (TatRev) were measured by RT-ddPCR, normalized to 1 μg of total cellular RNA, and expressed as a percentage of the activated DMSO control (% of activated DMSO). RT-dd, reverse transcription digital droplet; vRNA, viral RNA; HAT, histone acetyltransferase.
(§1) For quantification of cell-associated HIV transcripts, PBMCs were harvested either after 24 hours or after 6 days. The cell viabilities were measured by trypan blue staining; then the cells were pelleted by centrifuging at 300g for 6 minutes and stored at –80°C. For quantification of virion-associated HIV RNA, cell culture supernatant was collected from 6 × 10^6 PBMCs that were treated and activated for 6 days as described above. Residual cells and cellular debris were subsequently removed from the supernatant by differential centrifugation (300g for 6 minutes, then 20,000g for 10 minutes), and the supernatant was stored at –80°C.

PBMCs [2] = format: cell-based, human; details: 6 days after αCD3/28 activation, each row one participant
Method: Next, we evaluated the ability of the candidate LPAs to sustain the inhibitory effects during a prolonged ex vivo culture. To this end, PBMCs were cultured in the presence of individual drugs in DMSO or in DMSO alone as control, activated (anti-CD3/CD28), and harvested after 6 days. […] Ruxolitinib and triptolide caused sustained reductions in initiated HIV transcripts (medians relative to activated DMSO: 27%, P = NS and 1%, P = 0.03, respectively; Figure 4A and Table 3). […] However, we decided to test the drug on day 6 because extra cells were available from some study participants.
as §1
Figure S4. […] A) After six days, the viability was measured by trypan blue staining and then normalized to the levels of the activated DMSO (% of activated DMSO). […]

## mithramycin A
PBMCs [1]; study participant 150b
  Viability (Fig 1A): 103.906 % of activated DMSO
PBMCs [1]; study participant 2147b
  Viability (Fig 1A): 89.3 % of activated DMSO
PBMCs [2]; 25nM
  Cell viability (DMSO αCD3/28 = 100): 97.1 and 96.36 and 105.2 and 100.16 and 85.21 and 82.9 and 109.3

## CN1CC[C@H](c2c(O)cc(O)c3c(=O)cc(-c4ccccc4Cl)oc23)[C@H](O)C1 [alvocidib]
PBMCs [1]; study participant 152
  Viability (Fig 1A): 105.47 % of activated DMSO

## COc1ccc(-c2cc(=O)c3c(O)cc(O)c(-c4cc(-c5cc(=O)c6c(O)cc(O)cc6o5)ccc4OC)c3o2)cc1 [isoginkgetin]
PBMCs [2]; 25μM
  Cell viability (DMSO αCD3/28 = 100): 109
